Results of unrelated studies side by side (data: NIAID ChemDB).

Shared fields: growth or infection tests; agent: Mycobacterium tuberculosis

Percent inhibition refers to the dose given; in toxicity tests it is the harm to the cells. ECn: concentration that inhibits the pathogen or its effect by n%. MIC bound: limit read from a one-dose screen. MIC50, MIC90 and the like: level of inhibition, or share of isolates inhibited. Conditions beyond the fields shown may differ between rows. An empty or dashed field is not shown.

compound,changes,dose,read by,strain or isolate,setting,measure,result
CCN1CC(c2ccccc2)NC(C#N)=C1C#N,,,broth dilution / visual reading,H37Rv,,MIC,1.5 µg/mL
CCn1c(-c2ccc(N=Nc3c(C)[nH]n(CCO)c3=O)cc2)n[nH]c1=S,,,,H37Rv,,MIC,>12.5 µg/mL
NC(N)=N/N=C1\C(=O)N(C2CCCCCC2)C(=O)C1C(=O)NC1CCCCCC1,,,BACTEC,H37Rv,,MIC,≥12.8 µg/mL
CCOC(=O)c1c(NC(=O)c2c(F)c(F)c(F)c(F)c2F)sc2c1CCOC2,katG Y155 truncation mutant,,turbidity,H37Rv,,MIC,0.37 µM
O=C1c2ccccc2C(=O)c2sc(Nc3cccc(Cl)c3)nc21,,12.5 µg/mL,BACTEC,H37Rv,,inhibition,100%
CCOC(=O)c1c(NC(=O)c2c(F)c(F)c(F)c(F)c2F)sc2c1CCNC2=O,rpoB S522L mutant,,turbidity,H37Rv,,EC90,1.6 µM
C[C@H]1COc2c(N3CCN(C)CC3)c(F)cc3c(=O)c(C(=O)O)cn1c23,,,,H37Rv,,MIC,0.5 µg/mL
CC1=C(C(=O)Nc2ccc(Cl)cc2)C(c2ccc(Cl)cc2Cl)C(C(=O)Nc2ccc(Cl)cc2)=C(C)N1,,,,H37Rv,,MIC,>12.5 µg/mL
N/C(COc1cccc(Cl)c1)=N/NC(=O)c1ccncc1,,,,ATCC 35838 (rifampin-resistant),,MIC,12.5 µg/mL
CSc1ccc(C2C(C(=O)Nc3ccccc3)=C(C)NC(C)=C2C(=O)Nc2ccccc2)cc1,,2.5 µg/mL,,H37Rv,,inhibition,69%
CC[C@@]1(O)C(=O)OCc2c1cc1n(c2=O)Cc2cc3cc(O)ccc3nc2-1,,6.25 µg/mL,resazurin,H37Rv,,inhibition,-9%
COc1ccc2cc([N+](=O)[O-])c3ccc(=O)oc3c2c1,,,resazurin,H37RvEr,,MIC,25 µg/mL
Cc1cccc(C)c1-n1cc(NC(=S)NC(=O)c2ccccc2)n(C(=O)c2ccccc2)c1=S,,,BACTEC,H37Rv,,MIC bound,>12.5 µg/mL
NC(=S)c1cccc(CSc2ncn[nH]2)c1,,,,My 331/88,,MIC,500 µM
Cc1[nH]n(-c2ccccc2)c(=O)c1N=Nc1ccc(C(=O)N/N=C/c2ccc(F)cc2)cc1,,12.5 µg/mL,,H37Rv,,inhibition,25%
O=[N+]([O-])[O][Ga]([O][N+](=O)[O-])[O][N+](=O)[O-],,,,H37Ra,inside macrophages,EC50,<375 µM
N/C(COc1ccc([N+](=O)[O-])cc1)=N/NC(=O)c1ccncc1,,,,16 isolates,,MIC90,12.5 µg/mL
CCn1cc(C(=O)O)c(=O)c2cc(F)c(N3CCN(C/C(=N/O)c4ccc(C)cc4)CC3)cc21,,,,H37Rv,,MIC,>6.25 µg/mL
O=C(CNC(=O)OCc1ccccc1)NCC(=O)NC(Cc1c[nH]c2ccccc12)C(=O)O,,,BACTEC,H37Rv,,MIC bound,>12.5 µg/mL
CCOC(=O)c1c(N)sc2c1CCCC2,,,resazurin,H37Rv,,MIC,>200 µg/mL
CCN1C(C#N)=C(C#N)N=C(c2cccs2)C1/C=C/c1ccc(-c2ccccc2)cc1,,,broth dilution / visual reading,H37Rv,,MIC,12.5 µg/mL
Brc1cccc(CSc2ncn[nH]2)c1,,,,My 331/88,,MIC,250 µM
CCCCNC(CC(=O)OCC)[C@H]1O[C@@H]2OC(C)(C)O[C@@H]2[C@H]1OC,,,,H37Ra,,MIC,>25 µg/mL
CC1=C(C(=O)Nc2ccccc2Cl)C(c2ccccc2S)C(C(=O)Nc2ccccc2Cl)=C(C)N1,,,,H37Rv,,EC50,>2.5 µg/mL
O=[N+]([O-])c1cn2c(n1)OC[C@@H](OCc1ccc(OCc3ccccc3)cc1)C2,,,,H37Rv-T2 (PA-824-resistant),,MIC,>100 µM
CCN1CCc2c(sc(NC(=O)c3c(F)c(F)c(F)c(F)c3F)c2C#N)C1,gyrA mutant (D94N),,turbidity,H37Rv,,EC90,20 µM
Cc1[nH]n(-c2ccccc2)c(=O)c1N=Nc1ccc(-c2n[nH]c(=S)o2)cc1,,12.5 µg/mL,,H37Rv,,inhibition,91%
CCN1CCc2c(sc(NC(=O)c3c(F)c(F)c(F)c(F)c3F)c2C(=O)NC)C1,,,turbidity,ATCC 35822,,EC50,1.9 µM
COc1ccc(-c2oc(/C=N/NC(N)=S)c([N+](=O)[O-])c2-c2ccc(OC)c(OC)c2)cc1OC,,12.5 µg/mL,BACTEC,H37Rv,,inhibition,78%
CCOC(=O)CCNC(CC(=O)OCC)[C@H]1O[C@@H]2OC(C)(C)O[C@@H]2[C@H]1OC,,,,H37Rv,,MIC,50 µg/mL
CCN(CC)CCCN=c1cc2n(-c3ccc(Cl)c(Cl)c3)c3ccccc3nc-2cc1Nc1ccc(Cl)c(Cl)c1,,,,14,multidrug-resistant,MIC,0.12 µg/mL
CCOC(=O)C(NC(=O)CC(C)C)(N1CCN(c2cc3c(cc2F)c(=O)c(C(=O)O)cn3C2CC2)CC1)C(F)(F)F,,,resazurin,H37Rv,,MIC bound,<6.25 µg/mL
O=[N+]([O-])c1cn2c(n1)OC[C@@H](OCc1ccc(OC(F)(F)F)cc1)C2,,,,H37Rv-7A2 (PA-824-resistant),,MIC,>100 µM
CCn1cc(C(=O)O)c(=O)c2cc(F)c(N3CCN(C/C(=N/O)c4ccc(Br)cc4)CC3)nc21,,,,H37Rv,,MIC,>6.25 µg/mL
CCn1c(-c2ccc(N=Nc3c(C)[nH]n(-c4ccccc4)c3=O)cc2)n[nH]c1=S,,,,H37Rv,,MIC,>12.5 µg/mL
OCCCNc1nc2cc(Cl)ccc2c2ccc(Cl)cc12,,12.5 µg/mL,BACTEC,H37Rv,,inhibition,22%
CC(=O)Nc1ccc(OCC(=O)N/N=C/c2ccc(Cl)cc2)cc1,,,,H37Rv,,EC50,>12.5 µg/mL
CCn1cc(C(=O)O)c(=O)c2cc(F)c(N3CCN(C/C(=N/O)c4ccc(OC)cc4)CC3)cc21,,,,H37Rv,,MIC,>6.25 µg/mL
CCOC(=O)/C(N=Nc1ccc(-c2n[nH]c(=S)n2-c2ccccc2)cc1)=C(\C)O,,,,H37Rv,,EC50,>12.5 µg/mL
Cc1ccc(S(=O)(=O)Oc2ccc3oc4c(CO)ccc(NCCN(C)C)c4c(=O)c3c2)cc1,,,BACTEC,H37Rv,,MIC bound,≤12.5 µg/mL
CC1=C(C(=O)Nc2ccc([N+](=O)[O-])cc2)C(c2cccc(Br)c2)C(C(=O)Nc2ccc([N+](=O)[O-])cc2)=C(C)N1,,,,H37Rv,,MIC,>6.25 µg/mL
CCOC(=O)/C=C/c1ccc(OC)cc1,,,resazurin,BTB09-001,,MIC,242 µM
Cl.Cl.O=C(Nc1ccc(C2=NCCN2)cc1)c1ccc(C(=O)Nc2ccc(C3=NCCN3)cc2)cc1,,,BACTEC,H37Rv,,MIC,>128 µg/mL
CCN1CC(c2ccsc2)NC(C#N)=C1C#N,,,broth dilution / visual reading,H37Rv,,MIC,12.5 µg/mL
CCn1cc(C(=O)O)c(=O)c2cc(F)c(N3CCN(C/C(=N/O)c4ccccc4)CC3)cc21,,,,H37Rv,,MIC,>6.25 µg/mL
CC(=O)Nc1ccc(OCC(=O)N/N=C/C=C/c2ccccc2)cc1,,12.5 µg/mL,,H37Rv,,inhibition,4%
NC(=O)c1csc([C@@H]2O[C@@H]3COP(=O)(O)O[C@H]3[C@H]2O)n1,,12.5 µg/mL,BACTEC,H37Rv,,inhibition,8%
COc1ccccc1NC(=O)C1=C(C)NC(C)=C(C(=O)Nc2ccccc2OC)C1c1ccc(Cl)cc1Cl,,2.5 µg/mL,,H37Rv,,inhibition,91%
CC1=C(C(=O)Nc2ccc([N+](=O)[O-])cc2)C(c2ccccc2O)C(C(=O)Nc2ccc([N+](=O)[O-])cc2)=C(C)N1,,,,H37Rv,,MIC,>12.5 µg/mL
C[C@]1(COc2ccc(N3CCC(Oc4ccc(OC(F)(F)F)cc4)CC3)cc2)Cn2cc([N+](=O)[O-])nc2O1,,,,ATCC 35837 (H37RV-E-R),,MIC,0.012 µg/mL
C[n+]1c(-c2ccc(/C=N/NC(=O)N/N=C/c3ccc(-c4cn5ccccc5[n+]4C)cc3)cc2)cn2ccccc21.Cc1ccc(S(=O)(=O)[O-])cc1.Cc1ccc(S(=O)(=O)[O-])cc1,,12.5 µg/mL,BACTEC,H37Rv,,inhibition,99%
CC1=C(C(=O)Nc2ccc(F)cc2)C(c2ccccc2[N+](=O)[O-])C(C(=O)Nc2ccc(F)cc2)=C(C)N1,,,,H37Rv,,MIC,>6.25 µg/mL
COc1ccc(C2SCC(=O)N2NC(=O)COc2ccc(NC(C)=O)cc2)cc1,,,,H37Rv,,EC50,>12.5 µg/mL
CCN1CCc2c(sc(NC(=O)c3c(F)c(F)c(F)c(F)c3F)c2C(N)=O)C1,,,resazurin,H37Rv,,MIC,3.5 µM
COc1ccc(/C=C(/C#N)c2nc3ccccc3c(=O)[nH]2)cc1,,6.25 µg/mL,resazurin,H37Rv,,inhibition,-19%
C=CCn1c(-c2ccc(N=Nc3c(C)[nH]n(-c4ccccc4)c3=O)cc2)n[nH]c1=S,,12.5 µg/mL,,H37Rv,,inhibition,40%
COC(=O)C1C(O)C(C)C(O)C(C)(O)/C=C\C=C(/C)C(=O)Nc2c(C)c(OC(C)=O)c3c(c2O)C(=O)C(C)=C2OCOC(=C23)/C(C)=C/C(C)(O)C(O)C(C)C1O,,,BACTEC,H37Rv,,MIC,12.8 µg/mL
COc1cc2c3c(c1OC)-c1cc4c(cc1CC3N(C=O)CC2)OCO4,,,resazurin,H37RvSr,,MIC,>50 µg/mL
CC(=O)C(N=Nc1ccc(S(=O)(=O)Nc2ccccn2)cc1)C(=O)Nc1ccc(Cl)cc1,,6.25 µg/mL,resazurin,H37Rv,,inhibition,29%
CCNC(=O)c1c(NC(=O)c2c(F)c(F)c(F)c(F)c2F)sc2c1CCN(CC)C2,,,low oxygen,,,MIC,130 µM
COC1OC(CO)C(O)C(O)C1N1C(=O)c2ccccc2C1=O,,,BACTEC,H37Rv,,MIC bound,>12.5 µg/mL
CC1=C(C(=O)Nc2cccc([N+](=O)[O-])c2)C(c2ccccc2Cl)C(C(=O)Nc2cccc([N+](=O)[O-])c2)=C(C)N1,,2.5 µg/mL,,H37Rv,,inhibition,97%
CC1=C(C(=O)Nc2ccc([N+](=O)[O-])cc2)C(c2ccccc2)C(C(=O)Nc2ccc([N+](=O)[O-])cc2)=C(C)N1,,,,H37Rv,,MIC,>12.5 µg/mL
CC(=O)Nc1ccc(OCC(=O)N/N=C/c2ccccc2[N+](=O)[O-])cc1,,12.5 µg/mL,,H37Rv,,inhibition,9%
c1ccc(CSc2ncn[nH]2)cc1,,,,My 331/88,,MIC,500 µM
CC1=C(C(=O)Nc2ccc(F)c(Cl)c2)C(c2ccc(F)cc2)C(C(=O)Nc2ccc(F)c(Cl)c2)=C(C)N1,,,,H37Rv,,MIC,>6.25 µg/mL
O=P(O)(O)CN1CCNCCN(CP(=O)(O)O)CCNCC1,,6.25 µg/mL,resazurin,H37Rv,,inhibition,-19%
CCOC(=O)c1cc(-c2ccccc2)sc1N,,,resazurin,H37Rv,,MIC,>100 µg/mL
Cc1c(N2C[C@@H](N)C3(CC3)C2)c(F)c(N)c2c(=O)c(C(=O)O)cn(C3CC3)c12,,,,18 strains (levofloxacin-resistant),,MIC50,6.25 µg/mL
CN(C)CCNc1cccc2sc3ccc(O)cc3c(=O)c12,,12.5 µg/mL,BACTEC,H37Rv,,inhibition,100%
Clc1ccc(CSc2ncn[nH]2)cc1,,,,My 331/88,,MIC,1000 µM
COc1ccc(/C(CN2CCN(c3cc4c(cc3F)c(=O)c(C(=O)O)cn4C3CC3)CC2)=N\O)cc1,,,,H37Rv,,EC50,<6.25 µg/mL
NNC(=O)c1ccncc1,,,broth dilution / visual reading,H37Rv,,MIC,0.1 µg/mL
Nc1cc(=O)c2n[nH]nc2[nH]1,,,BACTEC,H37Rv,,MIC bound,>12.5 µg/mL
NNC(=O)c1ccncc1,,,,18 strains (levofloxacin-resistant),,MIC90,>100 µg/mL
CCCCCCCCCCCCNC(CC(=O)O)[C@H]1O[C@@H]2OC(C)(C)O[C@@H]2[C@H]1OC,,,,H37Rv,,MIC,>50 µg/mL
COC(=O)C1=C(C)N(c2ccccc2)C(C)=C(C(=O)OC)C1c1ccc(Cl)cc1,,,,H37Rv,,MIC,>6.25 µg/mL
COC1=C(OC)C(=O)C(Sc2ccccc2)=C(CO)C1=O,,6.25 µg/mL,resazurin,H37Rv,,inhibition,-9%
Cc1ccc(OC/C(N)=N\NC(=O)c2ccncc2)cc1,,,,ATCC 35822 (isoniazid-resistant),,MIC,50 µg/mL
Cc1[nH]n(CCO)c(=O)c1N=Nc1ccc(-c2n[nH]c(=S)n2-c2ccccc2)cc1,,,,H37Rv,,EC50,>12.5 µg/mL
COc1c(N2CCNC(C)C2)c(F)cc2c(=O)c(C(=O)O)cn(C3CC3)c12,,,,18 strains (levofloxacin-resistant),,MIC90,3.13 µg/mL
CCCCCCCCCCCCCCCCNC(CC(=O)OCC)[C@H]1O[C@@H]2OC(C)(C)O[C@@H]2[C@H]1OC,,,,H37Ra,,MIC,12.5 µg/mL

Repeating the final 5 entries:

compound	changes	dose	read by	strain or isolate	setting	measure	result
COC1=C(OC)C(=O)C(Sc2ccccc2)=C(CO)C1=O		6.25 µg/mL	resazurin	H37Rv		inhibition	-9%
Cc1ccc(OC/C(N)=N\NC(=O)c2ccncc2)cc1				ATCC 35822 (isoniazid-resistant)		MIC	50 µg/mL
Cc1[nH]n(CCO)c(=O)c1N=Nc1ccc(-c2n[nH]c(=S)n2-c2ccccc2)cc1				H37Rv		EC50	>12.5 µg/mL
COc1c(N2CCNC(C)C2)c(F)cc2c(=O)c(C(=O)O)cn(C3CC3)c12				18 strains (levofloxacin-resistant)		MIC90	3.13 µg/mL
CCCCCCCCCCCCCCCCNC(CC(=O)OCC)[C@H]1O[C@@H]2OC(C)(C)O[C@@H]2[C@H]1OC				H37Ra		MIC	12.5 µg/mL